Tested on: HeLa cells
Experiment: XTT cytotoxicity assay with HeLa cells
Type: cell-based
Protocol: XTT assay. Cytotoxicity assays were performed in triplicate against HeLa cells (ATCC CCL-2). The IC50 values were calculated by nonlinear regression with GraphPad Prism 5 (San Diego, Calif.).
XTT assay. XTT assays were performed with HeLa cells (ATCC CCL-2) in triplicate, as previously described (Lancet 2008, 371, 1486). IC50 values were determined by nonlinear regression using GraphPad Prism 5 (San Diego, Calif.).

| SMILES | IC50 above MIC90 (HeLa IC50 versus C. difficile MIC90) [fold] | IC50 higher than MIC (HeLa XTT IC50 versus C. difficile MIC) [fold] |
| --- | --- | --- |
| O=C(O)c1ccc2oc(NC(=O)c3cc(Oc4cccc(OC(F)(F)F)c4)ccn3)nc2c1 [Compound 1, Sodium 2-(4-(3-(trifluoromethoxy)phenoxy)picolinamido)benzo[d]oxazole-5-carboxylate] | > 700 | – |
| O=C(Nc1ncco1)c1cc(-c2ccc(Cl)c(Cl)c2)ccn1 [Compound 87, 4-(3,4-Dichlorophenyl)-N-(oxazol-2-yl)picolinamide] | – | 760 |

Source: US20230271950A1, “ANTIBACTERIAL PICOLINAMIDE COMPOUNDS” (University of Notre Dame Du Lac, priority 2020, published 2023)
